Assay: Foam measurement (Hart de George method)
Format: physicochemical
Conditions: for foam: water of hardness 150 ppm
[1] = 1% of substance in 9% SLES solution

| Substance | Foam Height (mL) pH 6.0 [1] [mL] | Foam Height (mL) pH 8.0 [1] [mL] | foam (1% of substance mixed with SLES (9%), Hart de George method) [cc] | effect on foaming power / foaming characteristics of anionic surfactants (sodium laureth sulphate, Hart de George method) | foam (9% solution, Hart de George method) | Foam Height (mL) pH 6.0 (10% solution) [mL] | Foam Height (mL) pH 8.0 (10% solution) [mL] |
| --- | --- | --- | --- | --- | --- | --- | --- |
| N-Alkyl, N,N-dimethyl, N-benzyl ammonium chloride [Benzalkonium chloride] | 370 | 380 | 380 | significant depression | – | – | – |
| Sodium lauryl ether sulphate [Sodium lauryl ether sulphate (SLES)] | – | – | – | – | around 600 ccs | 600 | 600 |

Reference: patent publication US10259774B1, “Antimicrobials for preservation of home and personal care products” (GALAXY SURFACTANTS LTD., priority 2018, dated 2019)
